According to publication PMC10404671, “Deciphering the biosynthesis of a novel lipid in Mycobacterium tuberculosis expands the known roles of the nitroreductase superfamily” (The Journal of Biological Chemistry, 2023):

Tested on: CCCCCCCCCCCC(=O)SCCNC(=O)CCNC(=O)[C@H](O)C(C)(C)COP(=O)(O)OP(=O)(O)OC[C@H]1O[C@@H](n2cnc3c(N)ncnc32)[C@H](O)[C@@H]1OP(=O)(O)O
Assay: purified protein
Conditions: pH 7.2; 25.0 °C

TyzA (Mycobacterium tuberculosis H37Rv)
Km: 14 ± 2 µM
